Pooled drug test results. Numbers come from NIAID ChemDB, via PubChem.

All rows: growth or infection tests; species: Mycobacterium avium

Rows are shuffled and stem from different studies. An empty or dashed field is not shown. Two numbers with a dash give a range or band. ECn is the concentration giving n% inhibition of infection, replication or growth. A number after MIC or MFC names an inhibition level or a share of isolates.

compound | read by | endpoint | strain or isolate | value
C[C@H]1COc2c(N3CC(C)(CN)C3)c(F)cc3c(=O)c(C(=O)O)cn1c23 |  | Mean MIC | 4 strains | 50 µg/mL
CC[C@H]1OC(=O)[C@H](C)[C@@H](O[C@H]2C[C@@](C)(OC)[C@@H](O)[C@H](C)O2)[C@H](C)[C@@H](O[C@@H]2O[C@H](C)C[C@H](N(C)C)[C@H]2O)[C@](C)(OC)C[C@@H](C)C(=O)[C@H](C)[C@@H](O)[C@]1(C)O | broth dilution | MBC | N-444 | 32 µg/mL
CC1(C)CC(=O)C2=C(C1)OC1=C(C(=O)CC(C)(C)C1)[Se]2=O |  | MIC |  | 55.46 µg/mL
C=C1C2CC[C@H](C=O)C(O)(C=O)[C@@]2(C)CC[C@@H]1C |  | MIC | Isolate 733 HIV-positive | >100 µg/mL
O=C(O)c1cn(C2CC2)c2c(Cl)c(N3C[C@@H]4CCCN[C@@H]4C3)c(F)cc2c1=O |  | MIC | I | 1 µg/mL
N[C@@H]1CN(c2c(F)cc3c(=O)c(C(=O)O)cn([C@@H]4C[C@@H]4F)c3c2Cl)CC12CC2 | broth dilution | MBC | N-444 | 2 µg/mL
CC[C@@H]1C(=O)OC[C@@H]1Cc1cncn1C |  | MIC | Isolate 733 HIV-positive | >200 µg/mL
NNC(=O)c1ccncc1 | resazurin | EC50 |  | >200 µg/mL
O=C(O)c1cn(C2CC2)c2c(F)c(N3CCC(N4CCCC4)C3)c(F)cc2c1=O |  | MIC | PI2/6 | 1 µg/mL
CCNCC1CCN(c2c(F)cc3c(=O)c(C(=O)O)cn(CC)c3c2F)C1 |  | MIC50 | 22 strains | 64 µg/mL
C[C@H]1COC2(CCN(c3nc(=O)c4cc(C(F)(F)F)cc(C(=O)O)c4s3)CC2)O1 | resazurin | MIC99 | ATCC 13032 | >100 µg/mL
CC[C@H]1OC(=O)[C@H](C)[C@@H](O[C@H]2C[C@@](C)(OC)[C@@H](O)[C@H](C)O2)[C@H](C)[C@@H](O[C@@H]2O[C@H](C)C[C@H](N(C)C)[C@H]2O)[C@](C)(OC)C[C@@H](C)C(=O)[C@H](C)[C@@H](O)[C@]1(C)O |  | MIC90 | Reference strains | 16 µg/mL
NNC(=O)c1ccncc1 | fluorescence | MIC |  | 0.31 µM
O=C(O)c1cc(C(F)(F)F)cc2c(=O)nc(N3CCN(CC4CCCCC4)CC3)sc12 | resazurin | MIC99 | ATCC 15769 | >100 µg/mL
O=[N+]([O-])c1ccc(C2=NOC(c3ccc(N4CCN(Cc5ccccc5)CC4)cc3)C2)o1 |  | MIC | ATCC 25291 | 12.5 µg/mL
CCN1C(C#N)=C(C#N)N=C(c2ccccc2)[C@@H]1/C=C/c1ccccc1 | broth dilution / visual reading | MIC |  | 12.5 µg/mL
CCCCCCCCCCCCCCCCSC[C@@H]1N[C@H](CO)[C@@H](O)[C@@H]1O |  | MIC | 3 to 5 strains | 16–64 µg/mL
CCN1CC(c2ccsc2)=NC(C#N)=C1C#N | broth dilution / visual reading | MIC |  | 6.2 µg/mL
CCn1cc(C(=O)O)c(=O)c2ccc(C)nc21 |  | MIC | 3 strains | 128 µg/mL
CC[C@H]1OC(=O)[C@H](C)[C@@H](O[C@H]2C[C@@](C)(OC)[C@@H](O)[C@H](C)O2)[C@H](C)[C@@H](O[C@@H]2O[C@H](C)C[C@H](N(C)C)[C@H]2O)[C@](C)(O)C[C@@H](C)C(=O)[C@H](C)[C@@H](O)[C@]1(C)O |  | MIC90 | Clinical strains | >16 µg/mL
COc1c(N2CCNC(C)C2)c(F)cc2c(=O)c(C(=O)O)cn(C3CC3)c12 |  | Mean MIC | 4 strains | 2.3 µg/mL
CCn1cc(C(=O)O)c(=O)c2cc(F)c(N3CCNCC3)cc21 |  | MIC50 | 63 strains | 16 µg/mL
C[C@H]1COc2c(N3CC[C@H](N(C)C)C3)c(F)cc3c(=O)c(C(=O)O)cn1c23 |  | Mean MIC | 4 strains | 9 µg/mL
C[C@@H]1CN(c2c(F)c(N)c3c(=O)c(C(=O)O)cn(C4CC4)c3c2F)C[C@H](C)N1 |  | MIC | I | 8 µg/mL
C[C@H]1COc2c(N3C[C@@H]4CCCN[C@@H]4C3)c(F)cc3c(=O)c(C(=O)O)cn1c23 |  | Mean MIC | 4 strains | 0.7 µg/mL
NCCC(O)C(=O)N[C@@H]1C[C@H](N)C(O[C@H]2O[C@H](CN)[C@@H](O)[C@H](O)[C@H]2O)[C@H](O)[C@H]1O[C@H]1O[C@H](CO)[C@@H](O)[C@H](N)[C@H]1O |  | MIC90 | Reference strains | 8 µg/mL
CCN1C(C#N)=C(C#N)N=C(c2ccsc2)[C@H]1/C=C/c1ccccc1 | broth dilution / visual reading | MIC |  | 12.5 µg/mL
CCn1cc(C(=O)O)c(=O)c2cc(F)c(N3CCNCC3)cc21 |  | MIC | PI2/8 | 1 µg/mL
CC[C@@H](CO)NCCN[C@@H](CC)CO |  | MIC | MTCC1723 | 15 µg/mL
c1cncc(-c2ncc(-c3ccc4c(c3)OCO4)o2)c1 |  | MIC | Isolate 733 HIV-positive | 25 µg/mL
C[C@]1(COc2ccc(N3CCC(Oc4ccc(OC(F)(F)F)cc4)CC3)cc2)Cn2cc([N+](=O)[O-])nc2O1 |  | MIC | ATCC 25291 | 1.6 µg/mL
CCCCCCCCN1[C@H](CO)[C@@H](O)[C@H](O)[C@@H]1CO |  | MIC | 3 to 5 strains | >128 µg/mL
CC(C)N=c1cc2n(-c3ccc(Cl)cc3)c3ccccc3nc-2cc1Nc1ccc(Cl)cc1 |  | MIC90 | Clinical isolate | 0.12 µg/mL
c1ccc2c(c1)n1[se]n21 |  | MIC |  | 915 µg/mL
CO[C@H]1/C=C/O[C@@]2(C)Oc3c(C)c(O)c4c(O)c(c(/C=N/N5CCN(C)CC5)c(O)c4c3C2=O)NC(=O)/C(C)=C\C=C\[C@H](C)[C@H](O)[C@@H](C)[C@@H](O)[C@@H](C)[C@H](OC(C)=O)[C@@H]1C |  | MIC90 | Reference strains | >16 µg/mL
CC[C@H](CO)NC[C@@H]1O[C@H](CO)[C@@H](O)[C@@H]1O |  | MIC | 3 to 5 strains | >128 µg/mL
CO[C@H]1/C=C/O[C@@]2(C)Oc3c(C)c(O)c4c(O)c(c(/C=N/N5CCN(C)CC5)c(O)c4c3C2=O)NC(=O)/C(C)=C\C=C\[C@H](C)[C@H](O)[C@@H](C)[C@@H](O)[C@@H](C)[C@H](OC(C)=O)[C@@H]1C |  | MIC | Isolate 90-0842 | 30 µg/mL
CC[C@H]1C[C@@H]2CN3CCc4c([nH]c5ccc(OC)cc45)[C@](C(=O)OC)(C2)[C@H]13 |  | MIC | Isolate 733 HIV-positive | 50 µg/mL
CCN1CC(c2cccs2)=NC(C#N)=C1C#N | broth dilution / visual reading | MIC |  | 12.5 µg/mL
CO[C@H]1/C=C/O[C@@]2(C)Oc3c(C)c(O)c4c(O)c(c5c(c4c3C2=O)NC2(CCN(CC(C)C)CC2)N=5)=NC(=O)/C(C)=C\C=C\[C@H](C)[C@H](O)[C@@H](C)[C@@H](O)[C@@H](C)[C@H](OC(C)=O)[C@@H]1C |  | MIC50 | Clinical isolate | >0.5 µg/mL
Nc1ccc(S(=O)(=O)Nc2nccs2)cc1 |  | EC50 |  | 12.5–25 µg/mL
CCn1cc(C(=O)O)c(=O)c2cc(F)c(N3CCS(=O)CC3)c(F)c21 |  | MIC90 | 14 strains | 16 µg/mL
CO[C@H]1/C=C/O[C@@]2(C)Oc3c(C)c(O)c4c(O)c(c(N5CCN(Cc6c(C)cc(C)cc6C)CC5)c(O)c4c3C2=O)NC(=O)/C(C)=C\C=C\[C@H](C)[C@H](O)[C@@H](C)[C@@H](O)[C@@H](C)[C@H](OC(C)=O)[C@@H]1C |  | MBC | 3337-4 | 8 µg/mL
CCN1C(C#N)=C(C#N)N=C(c2ccsc2)C1/C=C/c1ccc(-c2ccccc2)cc1 | broth dilution / visual reading | MIC |  | 12.5 µg/mL

For reference, 5 entries again:

compound	read by	endpoint	strain or isolate	value
O=C(O)c1cc(C(F)(F)F)cc2c(=O)nc(N3CCN(CC4CCCCC4)CC3)sc12	resazurin	MIC99	ATCC 15769	>100 µg/mL
CCN1C(C#N)=C(C#N)N=C(c2ccsc2)C1/C=C/c1ccc(-c2ccccc2)cc1	broth dilution / visual reading	MIC		12.5 µg/mL
CCn1cc(C(=O)O)c(=O)c2cc(F)c(N3CCS(=O)CC3)c(F)c21		MIC90	14 strains	16 µg/mL
O=C(O)c1cn(C2CC2)c2c(Cl)c(N3C[C@@H]4CCCN[C@@H]4C3)c(F)cc2c1=O		MIC	I	1 µg/mL
C[C@H]1COC2(CCN(c3nc(=O)c4cc(C(F)(F)F)cc(C(=O)O)c4s3)CC2)O1	resazurin	MIC99	ATCC 13032	>100 µg/mL